{"source": "PubChem BioAssay AID1259414 (Drosophila RNAi Screening Center, 2018)", "test": "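Genome-wide screen for host control of endosymbiont load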 (primary screen)", "cell system": "Drosophila JW18 cells infected with Wolbachia", "reagent": "long dsRNA against Drosophila genes, 0.25 µg dsRNA per well of a 384-well plate", "timing": "5 days", "treatment": "cells persistently infected with Wolbachia before knock-down; no added drug", "detection": "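Automated imaging of bacterial rRNA staining divided by host cell count, reported as plate-normalised robust z-score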", "direction": "Wolbachia per cell robust z: higher = more Wolbachia per host cell than the plate typical", "active means": "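Hit when robust z is 1.5 or more, or -1.5 or less, in at least two of three replicates; excludes dsRNAs with several or no targets, genes not expressed in JW18 and well A1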", "note": "In all, the deposit lists about 24,000 reagents; below is an unselected part of those with a known target gene and a result. Of all reagents, about 1,210 (5%) are marked active. 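Inactive calls also include excluded dsRNAs with several or no targets, genes unexpressed in JW18, and well A1, regardless of score.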 Unmarked entries are inactive. The numbers tell different reagents against one gene apart."}
The first 2 entries as a preview:
{"Target gene": "Max", "dsRNA no.": 1, "Wolbachia per cell robust z, rep 1": 0.665, "Wolbachia per cell robust z, rep 2": -4.12, "Wolbachia per cell robust z, rep 3": -0.0783}
{"Target gene": "Dark", "dsRNA no.": 1, "Wolbachia per cell robust z, rep 1": -0.351, "Wolbachia per cell robust z, rep 2": 0.983, "Wolbachia per cell robust z, rep 3": -0.371}

The listing, from the first entry:
{"Target gene": "Max", "dsRNA no.": 1, "Wolbachia per cell robust z, rep 1": 0.665, "Wolbachia per cell robust z, rep 2": -4.12, "Wolbachia per cell robust z, rep 3": -0.0783}
{"Target gene": "Dark", "dsRNA no.": 1, "Wolbachia per cell robust z, rep 1": -0.351, "Wolbachia per cell robust z, rep 2": 0.983, "Wolbachia per cell robust z, rep 3": -0.371}
{"Target gene": "Dark", "dsRNA no.": 2, "Wolbachia per cell robust z, rep 1": 0.289, "Wolbachia per cell robust z, rep 2": -0.852, "Wolbachia per cell robust z, rep 3": -0.0773}
{"Target gene": "Dark", "dsRNA no.": 3, "Wolbachia per cell robust z, rep 1": -2.44, "Wolbachia per cell robust z, rep 2": -0.304, "Wolbachia per cell robust z, rep 3": -0.37}
{"Target gene": "Jhbp1", "dsRNA no.": 1, "Wolbachia per cell robust z, rep 1": -3.07, "Wolbachia per cell robust z, rep 2": 0.24, "Wolbachia per cell robust z, rep 3": -0.418}
{"Target gene": "Jhbp1", "dsRNA no.": 2, "Wolbachia per cell robust z, rep 1": "-1.67 (active)", "Wolbachia per cell robust z, rep 2": -1.78, "Wolbachia per cell robust z, rep 3": -0.632}
{"Target gene": "orb", "dsRNA no.": 1, "Wolbachia per cell robust z, rep 1": -3.39, "Wolbachia per cell robust z, rep 2": -0.252, "Wolbachia per cell robust z, rep 3": -0.583}
{"Target gene": "Tengl2", "dsRNA no.": 1, "Wolbachia per cell robust z, rep 1": -0.702, "Wolbachia per cell robust z, rep 2": -0.549, "Wolbachia per cell robust z, rep 3": -0.723}
{"Target gene": "Tengl2", "dsRNA no.": 2, "Wolbachia per cell robust z, rep 1": -0.293, "Wolbachia per cell robust z, rep 2": 1.11, "Wolbachia per cell robust z, rep 3": 0.898}
{"Target gene": "CG18371", "dsRNA no.": 1, "Wolbachia per cell robust z, rep 1": -0.962, "Wolbachia per cell robust z, rep 2": 0.28, "Wolbachia per cell robust z, rep 3": 0.587}
{"Target gene": "CG18371", "dsRNA no.": 2, "Wolbachia per cell robust z, rep 1": 1.21, "Wolbachia per cell robust z, rep 2": 0.812, "Wolbachia per cell robust z, rep 3": 0.287}
{"Target gene": "mor", "dsRNA no.": 1, "Wolbachia per cell robust z, rep 1": "1.85 (active)", "Wolbachia per cell robust z, rep 2": 1.66, "Wolbachia per cell robust z, rep 3": 1.06}
{"Target gene": "mor", "dsRNA no.": 2, "Wolbachia per cell robust z, rep 1": -0.7, "Wolbachia per cell robust z, rep 2": -1.04, "Wolbachia per cell robust z, rep 3": -1.44}
{"Target gene": "CG3097", "dsRNA no.": 1, "Wolbachia per cell robust z, rep 1": -0.348, "Wolbachia per cell robust z, rep 2": -0.946, "Wolbachia per cell robust z, rep 3": -4.71}
{"Target gene": "ldbr", "dsRNA no.": 1, "Wolbachia per cell robust z, rep 1": -0.162, "Wolbachia per cell robust z, rep 2": 1.38, "Wolbachia per cell robust z, rep 3": -0.00371}
{"Target gene": "HDAC3", "dsRNA no.": 1, "Wolbachia per cell robust z, rep 1": -0.193, "Wolbachia per cell robust z, rep 2": 0.294, "Wolbachia per cell robust z, rep 3": -3.89}
